Results deposited as PubChem BioAssay AID504761 (Drosophila RNAi Screening Center, 2011)

Aim: 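Genome-wide fly cell screen for genes dengue virus requires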 (primary screen)
Cells: D.Mel-2 cells from Drosophila
Knock-down reagent: long dsRNA against Drosophila genes
Challenge: infection with dengue virus type 2; dose and infection time not stated
Detection: 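Per well on two replicate plates, imaging gave the percent of cells positive for viral envelope protein, ranked by infection, and a nuclear count of cells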
Reading the numbers: infection score: higher = more virus-infected cells; cell count: higher = more cells in the well
Rule for the call: 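Low infection ranks in the two replicates (chance level up to 0.065) followed by a retest with a 1.5-fold or larger significant decrease, p below 0.05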
Meaning of the calls: active = confirmed: knock-down lowers infection; inactive = not picked or not confirmed
In all, the deposit lists about 22,000 reagents; below is an unselected part of those with a known target gene and a result. In the full data, 116 (0.52%) are marked active. 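Calls depend on retest data that are not deposited; infection was ranked per plate without normalising between plates; the unit of the infection score is not given.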 Raw values are not corrected between plates. Unmarked entries are inactive. A plus sign joins genes that one reagent is predicted to hit. The record does not give: the amount of reagent, the time to read-out.

no.	target gene	DRSC id	infection score, replicate 1	infection score, replicate 2	cell count, replicate 1	cell count, replicate 2
1	sick	DRSC02090	3.9	8.5	6334	5602
2	sick	DRSC02301	6.42	1.5	5572	6524
3	sick	DRSC02302	4.41	2.31	974	6624
4	sick	DRSC02306	11.3	1.25	5285	960
5	Cyp6a22	DRSC07382	29.8	20.2	5349	5927
6	Cyp6a22	DRSC24011	4.22	0.53	6424	6626
7	CG14891	DRSC15013	9.4	6.44	6773	6601
8	CG3149	DRSC17732	1.8	3.06	6787	7102
9	CG3149	DRSC27511	8.69	13.1	5837	6977
10	ItgaPS4	DRSC06630	8.63	12.3	6219	6651
11	cass	DRSC01850	9.33	13.5	6556	6188
12	cass	DRSC29928	4.67	3.05	6378	6197
13	AP-1sigma	DRSC15899	2.99	7.04	6398	6687
14	Dronc	DRSC11231	11.1	10.3	7039	7241
15	CG13295	DRSC09969	3.33	12	6161	5547
16	CG42516 + Pbp49	DRSC06073	2.98	8.15	5875	6405
17	EloA	DRSC16109	5.78	12.8	6804	6504
18	EloA	DRSC23920	1.4	3.03	6589	6229
19	Rbpn-5	DRSC04440	10.1	23.8	6089	5123
20	Rbpn-5	DRSC26142	3.82	1.09	5860	6119
21	CG4849	DRSC15662	39	38.1	3141	2808
22	CG4849	DRSC27175	31	43.5	2013	3497
23	mr	DRSC04332	27.5	23	5742	6132
24	mr	DRSC22856	2.28	8.99	6181	6231
25	mr	DRSC29384	14.2		4361	393

A run of entries from the list above:
no.	target gene	DRSC id	infection score, replicate 1	infection score, replicate 2	cell count, replicate 1	cell count, replicate 2
7	CG14891	DRSC15013	9.4	6.44	6773	6601
8	CG3149	DRSC17732	1.8	3.06	6787	7102
9	CG3149	DRSC27511	8.69	13.1	5837	6977
10	ItgaPS4	DRSC06630	8.63	12.3	6219	6651
